From patent publication US7465457, “Method of preparing botulinum neurotoxin type E light chain” (dated 2008)

Molecular target: GST-SNAP25bHA (GST fusion of human SNAP25b with a C-terminal HA epitope) (UniProt P60880)

**Q.** How did the Kcat turn out when “BoNT/A holotoxin (botulinum neurotoxin type A)” was run?
**A.** The Kcat was 1 s⁻¹.

**Q.** And the Kcat/Km?
**A.** The Kcat/Km was 20000 M⁻¹ s⁻¹.

**Q.** And the Km?
**A.** The Km was 64 µM.

**Q.** And the Vmax?
**A.** Its Vmax is 1.2 µM/min/mg.
